Measured values from several laboratories, pooled; numbers as filed in NIAID ChemDB.

All rows: whole-cell or culture tests; agent: Herpes simplex virus 2

ECn: concentration that inhibits the pathogen or its effect by n%.

| compound | cells | read by | measure | strain | result |
|---|---|---|---|---|---|
| CCn1nc(Cc2n[nH]c(=S)o2)nc1C | - | - | MIC | G | >400 µg/mL |
| CCCCCCC#Cc1cn(S(=O)(=O)c2ccc(C)cc2)c(=O)[nH]c1=O | HEL | cytopathic effect | EC50 | G | >200 µM |
| O=c1[nH]c(=O)n(COC(CO)CO)nc1Cc1ccc(Cl)cc1 | HFF | cytopathic effect | EC50 | - | >100 µM |
| OCCOCn1c(CCc2ccccn2)nc2cc(Cl)c(Cl)cc21 | HEL | cytopathic effect | EC50 | - | >100 µg/mL |
| CC(=O)c1c(-c2ccccc2)cc2ccccn12 | VERO | plaque count | EC50 | 186 | >100 µM |
| Nc1ncnc2c1ncn2[C@H]1CO[C@H](CO)[C@@H](O)C1 | E6SM | cytopathic effect | EC50 | G | >20 µg/mL |
| CCCCc1cc2cnc(=O)[nH]c2o1 | HEL | cytopathic effect | EC50 | G | >200 µM |
| COc1ccc(-n2c(Cc3nc4n(n3)CCCC4)n[nH]c2=S)cc1 | - | - | MIC | G | 80 µg/mL |
| COc1ccc(Cc2nn(COC(CO)CO)c(=O)[nH]c2=O)cc1 | HFF | cytopathic effect | EC50 | - | >100 µM |
| C#C[C@H](O)C1=C[C@@H](n2cnc3c(N)ncnc32)[C@H](O)[C@@H]1O | E6SM | cytopathic effect | EC50 | G | >100 µg/mL |
| Cc1cc(C)n2cc(-c3ccccc3)cc2c1 | VERO | plaque count | EC50 | 186 | >100 µM |
| Nc1ncnc2c1ncn2[C@@H]1C=C(CO)[C@@H](O)[C@H]1O | E6SM | cytopathic effect | EC50 | G | ≥40 µg/mL |
| CC1(C)OCC2(CC(CO)OC2=O)O1 | CCL18 | - | EC50 | - | >100 µM |
| Cc1cn(C[C@H]2C[C@H]2[C@H](O)CO)c(=O)[nH]c1=O | VERO | - | EC50 | - | >50 µM |
| CCCCCCCc1cc2cnc(=O)[nH]c2o1 | HEL | cytopathic effect | EC50 | G | >200 µM |
| COC(=O)c1ccc2cc(-c3ccccc3)cn2c1 | VERO | plaque count | EC50 | 186 | >100 µM |
| Nc1nc2c(ncn2COCCO)c(=O)[nH]1 | HFF | cytopathic effect | EC50 | 16052 8708 (acyclovir-resistant) | 10 µg/mL |
| Nc1nc(=O)n([C@@H]2O[C@H](CO)[C@@H](O)[C@@H]2F)cc1I | VERO | plaque count | EC50 | Lovelace MS | 0.9 µM |
| OC[C@H]1O[C@@H](n2c(SCc3ccccn3)nc3cc(Cl)c(Cl)cc32)[C@H](O)[C@@H]1O | HEL | cytopathic effect | EC50 | - | >50 µg/mL |
| Nc1ccn([C@H]2CO[C@H](CO)[C@@H](O)C2)c(=O)n1 | E6SM | cytopathic effect | EC50 | G | 20 µg/mL |
| COC(=O)C(Cc1c[nH]c2ccccc12)NP(=O)(O)OCC1C/C1=C/n1cnc2c(N)ncnc21 | VERO | plaque count | EC50 | - | 40 µM |
| Nc1ccn([C@@H]2C[C@](O)(CO)CO2)c(=O)n1 | CCL18 | - | EC50 | - | >100 µM |
| O=c1[nH]c(=O)n([C@H]2C[C@H](O)[C@@H](CO)O2)cc1/C=C/Br | Primary rabbit kidney cells | cytopathic effect | EC50 | G | 2 µg/mL |
| Brc1sccc1-c1cc2ccccn2c1 | VERO | plaque count | EC50 | 186 | >100 µM |
| CCn1nc(-c2ccc(Cn3ccc4ccccc43)cc2)nc1C | - | - | MIC | G | 80 µg/mL |
| Cc1cn([C@@H]2O[C@H](CO)[C@@H](O)[C@@H]2F)c(=O)[nH]c1=O | VERO | plaque count | EC50 | MS | 2.1 µM |
| O=c1ccn(C[C@H]2C[C@H]2[C@H](O)CO)c(=O)[nH]1 | VERO | - | EC50 | - | >50 µM |
| c1ccn2cc(-c3ccsc3)cc2c1 | VERO | plaque count | EC50 | 186 | >100 µM |
| CCCCCCCCC#Cc1cn(S(=O)(=O)c2ccc(C)cc2)c(=O)[nH]c1=O | HEL | cytopathic effect | EC50 | G | >200 µM |
| CC1(C)OCC(CO)(CC(O)CO)O1 | CCL18 | - | EC50 | - | >100 µM |
| Nc1nc2c(ncn2C[C@H]2C[C@H]2[C@H](O)CO)c(=O)[nH]1 | VERO | - | EC50 | - | >50 µM |
| OCCOCn1c(SCc2ccccn2)nc2cc(Cl)c(Cl)cc21 | HEL | cytopathic effect | EC50 | - | >50 µg/mL |
| COC(=O)[C@H](C)NP(=O)(OCC1C/C1=C/n1cnc2c(N)ncnc21)Oc1ccccc1 | HFF | cytopathic effect | EC50 | - | 1.1 µM |
| Nc1ccn(C[C@H]2C[C@H]2CO)c(=O)n1 | VERO | - | EC50 | - | >50 µM |
| OCCOCn1c(CCc2ccccn2)nc2ccccc21 | HEL | cytopathic effect | EC50 | - | >100 µg/mL |
| FC(F)(F)c1cc(Cl)c2cc(-c3ccccc3)cn2c1 | VERO | plaque count | EC50 | 186 | 50–100 µM |
| O=c1[nH]c(=O)n(COCCO)nc1Cc1ccc(Cl)cc1 | HFF | cytopathic effect | EC50 | - | >100 µM |
| CCc1cn([C@@H]2O[C@H](CO)[C@@H](O)[C@@H]2F)c(=O)[nH]c1=O | VERO | plaque count | EC50 | G | 0.24 µM |
| O=C(Nc1ccn([C@H]2C[C@](O)(CO)CO2)c(=O)n1)c1ccccc1 | CCL18 | - | EC50 | - | >100 µM |
| CC(=O)c1c(-c2ccc(Cl)c(Cl)c2)cc2ccccn12 | VERO | plaque count | EC50 | 186 | 20 µM |
| NC1=NC2C(C=CN2CC(CO)CCO)C(=O)N1 | VERO | cytopathic effect | EC50 | G | 13 µg/mL |
| CCc1nc(CC(=O)NN=C(C)C)nn1CC | - | - | MIC | G | >400 µg/mL |
| CCCCCCCCCCC#Cc1cn(S(=O)(=O)c2ccc(C)cc2)c(=O)[nH]c1=O | HEL | cytopathic effect | EC50 | G | >200 µM |
| NNC(=O)Cc1nc2n(n1)CCCCC2 | - | - | MIC | G | >400 µg/mL |
| Nc1ccnc(O[C@H]2CO[C@H](CO)[C@@H](O)C2)n1 | E6SM | cytopathic effect | EC50 | G | >20 µg/mL |

For reference, 4 entries again:

compound	cells	read by	measure	strain	result
COC(=O)c1ccc2cc(-c3ccccc3)cn2c1	VERO	plaque count	EC50	186	>100 µM
COc1ccc(Cc2nn(COC(CO)CO)c(=O)[nH]c2=O)cc1	HFF	cytopathic effect	EC50	-	>100 µM
CCCCCCCCCCC#Cc1cn(S(=O)(=O)c2ccc(C)cc2)c(=O)[nH]c1=O	HEL	cytopathic effect	EC50	G	>200 µM
Nc1ccnc(O[C@H]2CO[C@H](CO)[C@@H](O)C2)n1	E6SM	cytopathic effect	EC50	G	>20 µg/mL

Neighbouring rows are from separate reports. a–b is a range or a potency band. Blank or dashed fields: not listed here.